For 107 molecules, inhibition results are on record in PubChem BioAssay AID588499 (NMMLSC, 2011).

The entries are a selection whose mix differs from that of the whole data set. Calls of active or inactive are those of the source. Cut-off read from the data, not from the text of the source: active = inhibition above about 30%; inconclusive = no clear call, values can overlap the other calls; inactive = below that.

The assay concerns Botulinum neurotoxin type A light chain protease (Clostridium botulinum A str. ATCC 3502). Put plainly: BoNT/A light chain protease inhibitors, primary screen, biochemical, flow cytometry, MLPCN library (AID 588499). Note: plate controls were buffer without enzyme for full effect and enzyme alone for no effect. The conditions noted are these: multiplex microsphere protease substrate cleavage, at 10 µM, active compounds read high. A general note: A flow cytometer gives signals particle by particle.
Broadly, the inhibition is the drop in the measured response relative to a control, in per cent. Turning to `CCCCn1nnnc1C(c1ccc(OC)cc1)N1CCC(n2c(=O)[nH]c3ccccc32)CC1` (configuration not stated), the inhibition was inactive: -0.6%.
As to `CCOC(=O)N1CCC(Nc2ccc(OC)cc2)CC1`, the inhibition was inactive: -0.4%.
For the molecule `COc1ccc(Cl)cc1C(=O)NCC1(N2CCOCC2)CCCCC1`, the inhibition is inactive: -0.5%.
Next, `O=C(NCC1(N2CCCCC2)CCCCC1)c1ccc(Cl)s1`: inactive: -0.8%; `N#CC1(Nc2ccccc2)CCN(Cc2ccccc2)CC1`: inactive: 1.2%.
Next, `O=C(OC1CN2CCC1CC2)C1c2ccccc2Oc2ccccc21` (configuration not stated): inactive: -0.5%; `O=c1[nH]c2ccccc2n1C1CCN(C(c2cc3ccccc3o2)c2nnnn2C2CCCCC2)CC1` (configuration not stated): inactive: -0.1%.
Next, `O=C(NCC1(N2CCOCC2)CCCCC1)c1cc2ccccc2o1`: inactive: 0%; `Cc1cc(C)cc(N(C(=O)c2ccccc2)C2CCN(C(=O)OC(C)(C)C)CC2)c1`: inactive: -1.4%.
Take `O=C(NCC1(N2CCCCC2)CCCCC1)c1ccc(Cl)nc1`: the inhibition is inactive: -0.1%.
Next, `O=c1[nH]c2ccccc2n1C1CCN(C(c2ccccc2OC(F)(F)F)c2nnnn2C2CCCCC2)CC1` (configuration not stated): inactive: 0.3%; `Cc1cccc(NC2(C#N)CCN(Cc3ccccc3)CC2)c1`: inactive: 0.2%.
For the molecule `CSc1ccccc1C(=O)NCC1(N2CCCCC2)CCCCC1`, the inhibition is inactive: -3.2%.
Next, `O=C(NCC1(N2CCCCC2)CCCCC1)c1cccs1`: inactive: -0.8%.
Next, `CCCCn1nnnc1C(CC)N1CCC(n2c(=O)[nH]c3ccccc32)CC1` (configuration not stated): inactive: 0.1%; `CCCCn1nnnc1C(c1cccs1)N1CCC(n2c(=O)[nH]c3ccccc32)CC1` (configuration not stated): inactive: 0.2%; `O=C(NCC1(N2CCCCC2)CCCCC1)c1ccc(=O)[nH]c1`: inactive: -0.1%.
For `CC(C)(C)OC(=O)N1CCC(N(C(=O)c2ccccc2)c2ccc(F)cc2)CC1`, the inhibition was inactive: -4.2%.
Next, `COc1ccc(C(=O)NCC2(N3CCCCC3)CCCCC2)c(OC)c1OC`: inactive: 0.9%.
Next, `CCC(c1nnnn1C1CCCC1)N1CCC(n2c(=O)[nH]c3ccccc32)CC1` (configuration not stated): inactive: 0.4%; `COc1ccc(C(=O)NCC2(N3CCCCC3)CCCCC2)cc1`: inactive: -5.1%.
In the case of `O=c1[nH]c2ccccc2n1C1CCN(C(c2cccc3ccccc23)c2nnnn2C2CCCC2)CC1` (configuration not stated), the inhibition was inactive: 1.2%.
Next, `CCOC(=O)N1CCC(Nc2cccc(C)c2)CC1`: inactive: -1.9%; `COc1cc(C(=O)NCC2(N(C)C)CCCCC2)ccc1OC(F)F`: inactive: -0.7%; `O=c1[nH]c2ccccc2n1C1CCN(C(c2ccccc2)c2nnnn2C2CCCCC2)CC1` (configuration not stated): inactive: 0%.
For `COc1ccc(NC2CCN(CCc3ccccc3)CC2)c(OC)c1`, the inhibition is inactive: -0.9%.
Next, `CCOC(=O)N1CCC(Nc2ccc(F)cc2)CC1`: inactive: 4.8%; `CCCCn1nnnc1C(c1cc2ccccc2o1)N1CCC(n2c(=O)[nH]c3ccccc32)CC1` (configuration not stated): inactive: -0.3%; `O=P1(N(CCCl)CCCl)SCCCS1`: inactive: 0.1%.
Next, `CCCCOc1ccc(C(=O)NCC2(N3CCOCC3)CCCCC2)cc1`: inactive: -2.8%; `O=C(NCC1(N2CCCCC2)CCCCC1)c1ccc(F)cc1`: inactive: -0.1%; `CCOc1ccc(C)cc1CN(CCCl)CCCl`: inactive: 0.4%.
Next, `O=C1CCN(Cc2ccccc2)CC1`: inactive: 1.1%; `CC(C)(C)n1nnnc1C(c1ccccc1)N1CCC(n2c(=O)[nH]c3ccccc32)CC1` (configuration not stated): inactive: 0.6%.
`CN1CCN(CCOC(=O)C(O)(c2ccccc2)c2ccccc2)CC1`: the inhibition is inactive: 8.9%.
With `CC(C)c1ccc(C(=O)NCC2(N3CCOCC3)CCCCC2)cc1`, the inhibition was inactive: -2.3%.
Consider `COc1ccc(NC2CCN(C(=O)OC(C)(C)C)CC2)cc1`, for which the inhibition is inactive: -1.3%.
Consider `CCCCn1nnnc1C(c1cccc2ccccc12)N1CCC(n2c(=O)[nH]c3ccccc32)CC1` (configuration not stated), for which the inhibition was inactive: -0.7%.
With `COc1cc(C(=O)NCC2(N3CCCCC3)CCCCC2)ccc1OC(F)F`, the inhibition was inactive: -2.3%.
Next, `O=C(NCC1(N2CCOCC2)CCCCC1)c1cc(=O)[nH]c2ccccc12`: inactive: -0.1%; `O=C(NCC1(N2CCCCC2)CCCCC1)c1cccc(C(F)(F)F)c1`: inactive: 3.8%.
Next, `O=C(NCC1(N2CCCCC2)CCCCC1)c1cccc([N+](=O)[O-])c1`: inactive: -0.5%; `CSc1ccc(C(=O)NCC2(N3CCOCC3)CCCCC2)cc1`: inactive: 2.2%; `O=c1[nH]c2ccccc2n1C1CCN(C(c2ccccc2OC(F)(F)F)c2nnnn2C2CCCC2)CC1` (configuration not stated): inactive: -0.2%.
Next, `N#CC1(Nc2ccccc2)CCN(CCc2ccccc2)CC1`: inactive: 0.1%; `CCN1CCC(Nc2ccc(Cl)cc2)CC1`: inactive: -2.7%.
In the case of `O=C(NCC1(N2CCCCC2)CCCCC1)c1ccc(OC(F)F)cc1`, the inhibition was inactive: 1%.
Next, `CC(C)(C)n1nnnc1C(c1ccccc1OC(F)(F)F)N1CCC(n2c(=O)[nH]c3ccccc32)CC1` (configuration not stated): inactive: 0.2%; `CCCOc1ccc(C(=O)NCC2(N(C)C)CCCCC2)cc1OC`: inactive: -2.8%; `Cc1ccc(C(=O)NCC2(N(C)C)CCCCC2)o1`: inactive: 0.3%.
Next, `COc1ccc(C(c2nnnn2C2CCCC2)N2CCC(n3c(=O)[nH]c4ccccc43)CC2)cc1` (configuration not stated): inactive: 0.9%; `CN1CCC(Nc2cccc(F)c2)CC1`: inactive: 0.3%.
Next, `O=C(NCC1(N2CCCCC2)CCCCC1)c1cncc(Br)c1`: inactive: -0.4%; `CCCCn1nnnc1C(c1ccnc2ccccc12)N1CCC(n2c(=O)[nH]c3ccccc32)CC1` (configuration not stated): inactive: -0.8%.
In the case of `CCC(c1nnnn1C(C)(C)C)N1CCC(n2c(=O)[nH]c3ccccc32)CC1` (configuration not stated), the inhibition was inactive: -0.6%.
Next, `O=C(NCC1(N2CCOCC2)CCCCC1)c1cc(F)c(F)cc1Cl`: inactive: -2.4%.
Next, `COc1cc(OC)c(C(=O)NCC2(N(C)C)CCCCC2)cc1OC`: inactive: -3.2%.
Next, `CN(C)c1cccc(C(=O)NCC2(N3CCCCC3)CCCCC2)c1`: inactive: 0.2%.
As to `COc1ccc(CN(CCCl)CCCl)cc1Cl`, the inhibition is inactive: 0.1%.
Next, `CCCCn1nnnc1C(c1ccccc1OC(F)(F)F)N1CCC(n2c(=O)[nH]c3ccccc32)CC1` (configuration not stated): inactive: -0.2%; `CC(C)c1ccc(NC2CCN(C(=O)OC(C)(C)C)CC2)cc1`: inactive: -1.4%; `CCCCn1nnnc1C(c1cccc(OC)c1OC)N1CCC(n2c(=O)[nH]c3ccccc32)CC1` (configuration not stated): inactive: -1%.
Next, `O=c1[nH]c2ccccc2n1C1CCN(C(c2cccs2)c2nnnn2C2CCCC2)CC1` (configuration not stated): inactive: 0.2%; `O=C(OC1CN2CCC1CC2)C1c2ccccc2C=Cc2ccccc21` (configuration not stated): inactive: 0.5%; `N/C(=N\O)c1c(N)no[n+]1[O-]`: inactive: 0.3%.
Next, `COc1cccc(C(c2nnnn2C(C)(C)C)N2CCC(n3c(=O)[nH]c4ccccc43)CC2)c1OC` (configuration not stated): inactive: -1.3%.
As to `O=c1[nH]c2ccccc2n1C1CCN(C(c2ccnc3ccccc23)c2nnnn2C2CCCC2)CC1` (configuration not stated), the inhibition is inactive: 1.2%.
Next, `COc1ccc(C(=O)NCC2(N3CCOCC3)CCCCC2)cc1OC`: inactive: -0.5%; `O=c1[nH]c2ccccc2n1C1CCN(C(c2cccs2)c2nnnn2C2CCCCC2)CC1` (configuration not stated): inactive: -0.3%.
Next, `O=C(NCC1(N2CCOCC2)CCCCC1)c1cc(Br)ccc1Cl`: inactive: 10%.
Next, `COc1cc(C(=O)NCC2(N3CCOCC3)CCCCC2)cc(OC)c1C`: inactive: 0%; `CCCCn1nnnc1C(c1ccccc1)N1CCC(n2c(=O)[nH]c3ccccc32)CC1` (configuration not stated): inactive: -0.4%.
With `CC(C)(C)n1nnnc1C(c1cccc2ccccc12)N1CCC(n2c(=O)[nH]c3ccccc32)CC1` (configuration not stated), the inhibition is inactive: 0.7%.
Next, `Cc1cc(N(CCCl)CCCl)ccc1C=O`: inactive: -0.2%; `CCCN1CCC(Nc2cc(OC)cc(OC)c2)CC1`: inactive: -1.1%; `O=c1[nH]c2ccccc2n1C1CCN(C(c2ccccc2)c2nnnn2C2CCCC2)CC1` (configuration not stated): inactive: 0.2%.
Next, `c1ccc(CN2CCC(Nc3ccccc3)CC2)cc1`: inactive: -0.7%; `CN(C)C1(CNC(=O)c2cccc(C#N)c2)CCCCC1`: inactive: -1.5%; `CC(C)(C)OC(=O)N1CCC(N(C(=O)c2ccccc2)c2ccc(Cl)cc2)CC1`: inactive: -1%.
As to `N#Cc1ccc(C(=O)NCC2(N3CCCCC3)CCCCC2)cc1`, the inhibition is inactive: -0.7%.
As to `CN(C)c1ccc(C(=O)NCC2(N3CCCCC3)CCCCC2)cc1`, the inhibition was inactive: 0.1%.
Next, `Cn1c(=O)[nH]cc(N(CCCl)CCCl)c1=O`: inactive: 0.4%; `O=C(NCC1(N2CCCCC2)CCCCC1)c1ccco1`: inactive: 0.3%.
Next, `CCN1CCC(Nc2cccc(F)c2)CC1`: inactive: 1.1%; `COc1ccc(C(c2nnnn2C2CCCCC2)N2CCC(n3c(=O)[nH]c4ccccc43)CC2)cc1` (configuration not stated): inactive: 0.2%; `CC(C)(C)n1nnnc1C(c1ccnc2ccccc12)N1CCC(n2c(=O)[nH]c3ccccc32)CC1` (configuration not stated): inactive: -0.1%.
Next, `Cc1ccccc1NC1(C#N)CCN(Cc2ccccc2)CC1`: inactive: -0.2%.
Take `Cc1ccc(NC2(C#N)CCN(Cc3ccccc3)CC2)cc1`: the inhibition was inactive: -0.4%.
Next, `Fc1ccccc1NC1CCN(Cc2ccccc2)CC1`: inactive: 0.9%.
Next, `Cc1ccc(C(=O)NCC2(N3CCCCC3)CCCCC2)o1`: inactive: -2.1%.
With `COc1cc(OC)cc(C(=O)NCC2(N3CCCCC3)CCCCC2)c1`, the inhibition is inactive: 1%.
Next, `O=c1[nH]c2ccccc2n1C1CCN(C(c2ccnc3ccccc23)c2nnnn2C2CCCCC2)CC1` (configuration not stated): inactive: 0%; `CCC(c1nnnn1C1CCCCC1)N1CCC(n2c(=O)[nH]c3ccccc32)CC1` (configuration not stated): inactive: 0.4%.
`COc1cccc(C(c2nnnn2C2CCCCC2)N2CCC(n3c(=O)[nH]c4ccccc43)CC2)c1OC` (configuration not stated): the inhibition was inactive: 0.5%.
With `CC(=O)N(c1ccccc1)C1CCNCC1`, the inhibition is inactive: -0.3%.
Next, `CN1CCC(Nc2ccc(Cl)cc2)CC1`: inactive: -3.6%.
Next, `CCC(CO)(C(=O)OC1CN2CCC1CC2)c1ccccc1` (configuration not stated): inactive: -0.8%.
Next, `COc1cc(OC)cc(C(=O)NCC2(N3CCOCC3)CCCCC2)c1`: inactive: 0.2%; `COc1cccc(C(c2nnnn2C2CCCC2)N2CCC(n3c(=O)[nH]c4ccccc43)CC2)c1OC` (configuration not stated): inactive: -0.1%; `COc1cccc(C(=O)N(c2cc(C)cc(C)c2)C2CCN(C(=O)OC(C)(C)C)CC2)c1`: inactive: -2.8%.
As for `O=c1[nH]c2ccccc2n1C1CCN(C(c2cc3ccccc3o2)c2nnnn2C2CCCC2)CC1` (configuration not stated), the inhibition is inactive: -0.8%.
Next, `CCCOc1ccc(C(=O)NCC2(N(C)C)CCCCC2)cc1`: inactive: 0.1%.
Next, `O=C(O)C1(Nc2ccccc2)CCN(Cc2ccccc2)CC1`: inactive: -0.4%; `NN(c1ccccc1)C1CCN(CCc2ccccc2)CC1`: inactive: -0.1%; `CC(C)(C)OC(=O)N1CCC(Nc2ccccc2)CC1`: inactive: 1.1%.
Turning to `CN1CCC(Nc2ccc(F)c(Cl)c2)CC1`, the inhibition was inactive: 0.9%.
Next, `CCOc1ncccc1C(=O)NCC1(N2CCOCC2)CCCCC1`: inactive: -1.8%.
